Results taken from article PMC7587356, “High-Throughput Screening for Inhibitors of the SARS-CoV-2 Protease Using a FRET-Biosensor” (Molecules, 2020).
Like-named read-outs stand apart in the source and are kept apart here. Some compounds share one wording; it may come from a single statement.

Test system: eCFP-Venus biosensor
Experiment: Counter-screen without protease for compounds interfering with FRET
[1] = no protease, LOPAC counter-screen

Compound	effect on FRET signal (R528/477) in the absence of protease [1]	effect on FRET signal (R528/477) in the absence of protease
O=C(Nc1cccc(C(=O)Nc2ccc(S(=O)(=O)O)c3cc(S(=O)(=O)O)cc(S(=O)(=O)O)c23)c1)Nc1cccc(C(=O)Nc2ccc(S(=O)(=O)O)c3cc(S(=O)(=O)O)cc(S(=O)(=O)O)c23)c1 [NF 023, reference compound]	large reduction in fluorescence	–
OCCN(CCO)c1nc(N2CCCCC2)c2nc(N(CCO)CCO)nc(N3CCCCC3)c2n1 [dipyridamole]	–	large reduction in fluorescence
O=C1c2ccccc2-c2n[nH]c3cccc1c23 [anthrapyrazolone]	large reduction in fluorescence	–
